We go through 32 compounds from PubChem BioAssay AID504832 (National Center for Advancing Translational Sciences (NCATS), 2011).

Only a part is listed here, and it is no random draw. Inconclusive results are not listed. Calls of active or inactive are those of the source. Calls follow the shape of the dose curve; as a rule, active = well fitted inhibition curve with a large enough effect; inconclusive = small, poorly fitted or top-dose-only effect, or another doubt; inactive = no such curve, though single readings can be large or run the other way.
% is scaled to controls: 0 for no effect and ±100 for the full control effect; potency is read from the fitted curve at half-maximal effect.

The assay can be described thus: Primary qHTS for delayed death inhibitors of the malarial parasite plastid, 48 hour incubation. Conditions: P. falciparum luciferase growth in erythrocytes; series mostly up to 28.7 µM; activity change, negative = inhibition: at the top concentration. The source says: The goal of this screen is to discover new antimalarial compounds that act by inhibiting the development of the apicoplast in the malarial parasite Plasmodium falciparum. The biochemical processes that make this organelle essential for erythrocytic stage parasites are not well understood. However, antibiotics such as azithromycin and tetracycline, which target the apicoplast translational machinery, have a potent antimalarial effect.
We have developed a cell-based assay that measures parasite growth based on the expression of an integrated copy of a firefly luciferase reporter. To detect small molecules that cause this "delayed death" phenotype, erythrocytes infected with the luciferase-expressing parasites were incubated with compounds for either one or two generations, corresponding to 48 and 96 hours, respectively. Compounds that inhibit parasite growth in the second generation, but not the first, should be enriched in antimalarials that target the apicoplast. Growth inhibition is detected by a decrease in luciferase activity.
Assay Provider: David Fidock and Eric Ekland, Columbia University
Keywords: NIH Roadmap, MLPCN, MLI, MLSMR, qHTS, NCGC, qHTS, malaria, luciferase, viability
Four microliters of culture medium (RPMI 1640 with 0.5% w/v Albumax (GIBCO), 24 mM sodium bicarbonate and 10 ug/mL gentamycin) were dispensed by a Multi-drop Combi into white solid 1536-well plates (Grenier) and 23 nL compound was added by a pin tool. Four microliters of infected erythrocytes (2% hematocrit, 0.1% parasitemia final concentration) in culture medium were dispensed and the plates incubated for 48 hours at 37 C in 5% CO2. Two microliters of luciferase detection reagent was added and luminescence was detected by a ViewLux (PerkinElmer) reader.
In general terms: qHTS replaces the single test concentration by a dilution series.
Regarding `CCOC(=O)Nc1ccc([As](=O)(O)O)c(O)c1`, the Potency was active: 6.57 µM.

As for `Cc1cc(SC(NC(=O)c2ccccc2)C(Cl)(Cl)Cl)nc(C(C)C)n1` (configuration not stated), the “activity change, negative = inhibition” value is inactive: 11.5%.

Regarding `CCOC(=O)Nc1cccc([As](=O)(O)O)c1`, the Potency is active: 3.7 µM.

Turning to `O=P(Nc1ccccn1)(c1cccc2ccccc12)c1cccc2ccccc12`, the “activity change, negative = inhibition” value is inactive: -11.6%.

As for `Cc1cc(SC(NC=O)C(Cl)(Cl)Cl)ncn1` (configuration not stated), the “activity change, negative = inhibition” value is inactive: 11.4%.

Consider `O=[N+]([O-])c1ccc(Nc2ccc(Oc3ccc([N+](=O)[O-])cc3[N+](=O)[O-])cc2)c([N+](=O)[O-])c1`, for which the “activity change, negative = inhibition” value was inactive: 5.16%.

For `COP1(=S)c2c(C)nn(CCC#N)c2N=C(c2ccc(F)cc2)N1C` (configuration not stated), the “activity change, negative = inhibition” value was inactive: -16.5%.

`O=C(COc1ccccc1)OC1CN2CCC1CC2` (configuration not stated): the “activity change, negative = inhibition” value was inactive: -8.12%.

For `O=C(OC1CN2CCC1CC2)c1cccc([N+](=O)[O-])c1` (configuration not stated), the “activity change, negative = inhibition” value was inactive: 24.6%.

On to `CCOC(=O)c1ccc(NC(=O)C(C)(CCl)SC)cc1` (configuration not stated), for which the “activity change, negative = inhibition” value was inactive: 69.3%.

In the case of `Cc1c2c(nc3ccccc13)SC(C(Cl)Cl)C2` (configuration not stated), the “activity change, negative = inhibition” value was inactive: 12.8%.

Regarding `COc1ccc2nc(NP(=O)(c3ccccc3)c3ccccc3)sc2c1`, the “activity change, negative = inhibition” value is inactive: -26.9%.

Regarding `COc1cc(I)ccc1[As](=O)(O)O`, the Potency is active: 1.85 µM.

In the case of `COc1ccc(N/C(=N/P(=O)(N2CCOCC2)N2CCOCC2)N2CCOCC2)cc1`, the “activity change, negative = inhibition” value is inactive: 11.5%.

For the compound `O=[As](O)(c1ccc(O)cc1)c1ccccc1O`, the Potency is active: 4.65 µM.

With `C[As](=O)(O)c1cccc(C(=O)O)c1`, the “activity change, negative = inhibition” value is inactive: 42.1%.

On to `Cc1ccc(OP(=O)(Nc2ccc([N+](=O)[O-])cn2)Oc2ccc(C)cc2)cc1`, for which the “activity change, negative = inhibition” value was inactive: 70.6%.

For the compound `Cc1ccc2nc3c(c(C)c2c1)CC(C(Cl)Cl)S3` (configuration not stated), the “activity change, negative = inhibition” value is inactive: 43.4%.

For `ClCCSc1nnc(-c2cccnc2)o1`, the “activity change, negative = inhibition” value is inactive: 68.5%.

As to `O=P(Nc1nccs1)(Oc1ccccc1)Oc1ccccc1`, the “activity change, negative = inhibition” value is inactive: 0%.

As to `CS(=O)(=O)c1cc([N+](=O)[O-])c2no[n+]([O-])c2c1`, the “activity change, negative = inhibition” value was inactive: -5.61%.

As to `O=C(O)COc1ccc([As](=O)(O)O)cc1[N+](=O)[O-]`, the “activity change, negative = inhibition” value is inactive: -0.669%.

In the case of `NC(=O)Nc1ccc([As](=O)(O)O)cc1`, the “activity change, negative = inhibition” value was inactive: -25.8%.

Regarding `N#CCCN(C(=O)COC(=O)C(O)(c1ccccc1)c1ccccc1)c1ccc(F)cc1`, the “activity change, negative = inhibition” value was inactive: -1.36%.

As to `O=C(OC1CN2CCC1CC2)c1ccc(Cl)cc1` (configuration not stated), the “activity change, negative = inhibition” value was inactive: -8.56%.

On to `CS(=O)(=O)c1ccc(Cl)c(NC(=O)COC(=O)C(O)(c2ccccc2)c2ccccc2)c1`, for which the “activity change, negative = inhibition” value was inactive: 10.1%.

On to `Cc1cccc(OCC(=O)OC2CN3CCC2CC3)c1` (configuration not stated), for which the “activity change, negative = inhibition” value is inactive: -7.26%.

For `Nc1cccc2c([As](=O)(O)O)cccc12`, the Potency was active: 1.04 µM.

As to `CCCOP(=S)(Nc1nc(N)cc(=O)[nH]1)OCCC`, the “activity change, negative = inhibition” value was inactive: -6.3%.

On to `COc1cc(C2NCCC3(OCCO3)C2(C)C)cc(OC)c1OC` (configuration not stated), for which the “activity change, negative = inhibition” value was inactive: -16.7%.

As for `CCOP(=O)(Nc1cccc2ccccc12)OCC`, the “activity change, negative = inhibition” value is inactive: -8.26%.

Turning to `O=P1(Nc2ccccn2)COc2ccccc2OC1`, the “activity change, negative = inhibition” value was inactive: 0.274%.
